A mixed list of measured activities; the numbers were collected in NIAID ChemDB.

All rows: toxicity to cultured cells; cells: MT-4; read by: MTT; endpoint: CC50

Two numbers with a dash give a range or band.

smiles	result
C[C@@]1(n2ccc(=O)[nH]c2=O)CO[C@@H](CO)O1	>100 µM
CCc1c(C(=O)c2cc(C(F)(F)F)cc(C(F)(F)F)c2)n(Cc2ccncc2)c(=O)[nH]c1=O	52.3 µg/mL
Cc1cn([C@H]2C[C@H](N=[N+]=[N-])[C@@H](CO)O2)c(=O)[nH]c1=O	0.53 µg/mL
COc1ccc(Nc2nc3ccccc3n3cccc23)cc1	>100 µM
Cc1cc(C)cc(C(=O)c2c(C(C)C)c(=O)[nH]c(=O)n2Cc2ccnc(C)c2)c1	>100 µg/mL
CC(=O)Nc1ncc(-c2ccc(S(=O)(=O)N(CC(C)C)C[C@@H](O)[C@H](Cc3ccccc3)NC(=O)O[C@H]3CO[C@H]4OCC[C@H]43)cc2)[nH]1	>100 µM
Cc1cnc(Nc2ccc(C#N)cc2)nc1C(C)c1c(F)cccc1F	71.4 µM
O=C1C=C[C@H](n2cnc3c(Cl)ncnc32)CC1	13.5 µg/mL
COc1ccc(NC(=O)C2=C(C)NC(=O)C3C(N)=NN=C23)cc1	73.8 µg/mL
CCc1c(C(=O)c2cc(C)cc(C)c2)n(Cc2cc(C)nc(C)c2)c(=O)[nH]c1=O	17.5 µg/mL
CC(C)OC(=O)c1[nH]c2ccc([N+](=O)[O-])cc2c1COCc1ccc(Cl)cc1	>80 µM
Cc1cc(CF)cc(C(=O)c2c(C(C)C)c(=O)[nH]c(=O)n2Cc2cc(C)nc(C)c2)c1	36.03 µg/mL
Cc1c(C(C)c2c(F)cccc2F)nc(Nc2ccc(C#N)cc2)[nH]c1=O	1.064 µM
CC1=C[C@H](Cn2cnc3c(=O)[nH]cnc32)C[C@@H]1CO	>100 µg/mL
Nn1c(-c2ccc(O)c(Br)c2)n[nH]c1=S	75.4 µg/mL
Cc1ccc(-c2cc(-c3ccc(Cl)cc3)nc(/N=C3\C(=O)N(CN(C)C)c4ccc(Br)cc43)n2)cc1	12.9 µM
N#Cc1ccc(Nc2nc(Cc3c(F)cccc3F)cc(=O)[nH]2)cc1	>25 µM
Brc1ccc(-c2csc(N/N=C/c3cccnc3)n2)cc1	23.39 µM
C[C@H](CS)C(=O)N1CCC[C@@H]1c1nc2ncccc2[nH]1	4.24 µg/mL
Cc1cccc(Nc2nn3c(=O)c4ccccc4nc3s2)c1	>32 µg/mL
CC1=C[C@H](Cn2cnc3c(N)ncnc32)C[C@@H]1CO	>100 µg/mL
Nc1nc2c(ncn2COCCO)c(=O)[nH]1	>555 µM
CCCCCCCC/C=C\CCCCCCCC(=O)OCC(COC(=O)CCCCCCC/C=C\CCCCCCCC)OC(=O)CCC(=O)O[C@@H](C[C@@H](Cc1ccccc1)C(=O)N[C@H]1c2ccccc2C[C@H]1OC(=O)CCC(=O)OC(COC(=O)CCCCCCC/C=C\CCCCCCCC)COC(=O)CCCCCCC/C=C\CCCCCCCC)CN1CCN(Cc2cccnc2)C[C@H]1C(=O)NC(C)(C)C	>100 µM
N#Cc1ccc(-c2csc(N/N=C/c3ccc([N+](=O)[O-])cc3)n2)cc1	10.55 µM
NC1=Nn2c(nnc2-c2ccc(Cl)c(Cl)c2)SC1	2.7 µg/mL
COc1ccc(Nc2nc3ccccc3n3cccc23)cc1OC	31 µM
CCc1c(C(=O)c2cc(F)cc(F)c2)n(Cc2cccnc2)c(=O)[nH]c1=O	74.3 µg/mL
Cc1ccc(-c2cc(-c3ccc(Cl)cc3)nc(/N=C3\C(=O)N(CN4CCOCC4)c4ccc(Br)cc43)n2)cc1	1.9 µM
O=C(c1ccccc1)n1c(=O)ccn([C@H]2C=CC3(CC2)O[C@H](c2ccccc2)[C@@H](c2ccccc2)O3)c1=O	>25 µg/mL
CC(C)CN(C[C@@H](O)[C@H](Cc1ccccc1)NC(=O)O[C@H]1CO[C@H]2OCC[C@H]21)S(=O)(=O)c1ccc(-c2csc(NCCCN(C)C)n2)cc1	20.4 µM
O=c1ccn([C@@H]2O[C@H](CO)[C@@H](O)[C@H]2O)c2c(F)cccc12	31–125 µg/mL
COC(=O)c1ccc(CN2CCC(Nc3nc(Oc4c(C)cc(C#N)cc4C)c4ccsc4n3)CC2)cc1	>227 µM
C[C@H](CS)C(=O)N1CCC[C@@H]1c1nc2c(Cl)cccc2[nH]1	28.17 µg/mL
CCOC(=O)c1cc2ccc(Nc3ccc(COCCc4ccc(F)cc4)cc3)cc2[nH]1	>80 µM
Nc1ncnc2c1ncn2[C@@H]1C=CC(O)CC1	>25 µg/mL
CC(C)C(N)C(=O)O[C@H](CN1C[C@H]2CCCC[C@H]2C[C@H]1C(=O)NC(C)(C)C)[C@H](Cc1ccccc1)NC(=O)[C@H](CC(N)=O)NC(=O)c1ccc2ccccc2n1	>100 µM
C[C@]1(n2ccc(N)nc2=O)CO[C@@H](CO)O1	>100 µM
Cc1c(OC(=O)CCCCOc2ccc(C[C@H](NC(=O)OC(C)(C)C)C(=O)O)cc2)cccc1C(=O)N[C@@H](CSc1ccccc1)[C@H](O)CN1C[C@H]2CCCC[C@H]2C[C@H]1C(=O)NC(C)(C)C	>100 µM
CC1=C(C(=O)Nc2ccccc2F)C2=NN=C(N)C2C(=O)N1	82.9 µg/mL
Cc1nc(-c2ccc(S(=O)(=O)N(CC(C)C)C[C@@H](O)[C@H](Cc3ccccc3)NC(=O)O[C@H]3CO[C@H]4OCC[C@H]43)cc2)co1	>100 µM
Cc1c(Cl)nc(Nc2ccc(C#N)cc2)nc1Cc1c(F)cccc1F	>2.697 µM
O=C(NCc1ccc(F)cc1)C1C(=O)N(O)C(=O)c2ccccc21	202 µM
COc1cc(OCc2nc3ccccc3n3cccc23)cc(OC)c1OC	55 µM
CC(C)(C)NC(=O)[C@@H]1CN(Cc2cccnc2)CCN1C[C@@H](O)C[C@@H](Cc1ccccc1)C(=O)N[C@H]1c2ccccc2C[C@H]1OC(=O)CCCCOc1ccc(C[C@H](N)C(=O)O)cc1	>100 µM
COC(=O)c1cn([C@@H]2O[C@H](CO)[C@@H](O)[C@H]2O)c2c(F)cccc2c1=O	31–125 µg/mL
CC1=C(C(=O)Nc2ccc([N+](=O)[O-])cc2)C2=NN=C(N)C2C(=O)N1	71.5 µg/mL
O=c1ccn([C@H]2C=C[C@@H](O)CC2)c(=O)[nH]1	>25 µg/mL
COc1ccc(OCc2nc3cc(C(F)(F)F)ccc3n3cccc23)cc1	52 µM
Cc1cc(Cl)cc(C(=O)c2c(C(C)C)c(=O)[nH]c(=O)n2Cc2ccnc(C#N)c2)c1	8.55 µg/mL
Oc1ccc(-c2nnc3sc(-c4ccc(O)c(Cl)c4Cl)nn23)cc1Br	4.12 µg/mL
C[C@H](CS)C(=O)N1CCC[C@@H]1c1nc2c([N+](=O)[O-])cccc2[nH]1	11.27 µg/mL
Oc1ccc(-c2nnc3sc(-c4ccco4)nn23)c(Cl)c1Cl	27.2 µg/mL
C=C1CC[C@]2(OC)OC(=O)C(C)=C2[C@@H]2[C@@H]1[C@@]13O[C@@]1(C[C@@H](C)[C@@H]3O)[C@H]1O[C@@]21C	31.46 µg/mL
CC(C)CN(C[C@@H](O)[C@H](Cc1ccccc1)NC(=O)O[C@H]1CO[C@H]2OCC[C@H]21)S(=O)(=O)c1ccc(-c2coc(-c3ccc([N+](=O)[O-])cc3)n2)cc1	>100 µM
Clc1ccc(-c2nnc3n2N=C(c2ccccc2)CS3)cc1Cl	1.97 µg/mL
C/C(=N\Nc1nc(-c2ccc(C#N)cc2)cs1)c1ccc2c(c1)OCO2	68.28 µM
CC1=C(C(=O)Nc2ccc(F)cc2)C2=NN=C(N)C2C(=O)N1	89 µg/mL
Cc1cc(C)cc(Sc2c(C(C)C)c(=O)[nH]c(=O)n2Cc2ccncc2)c1	8.5 µg/mL
Cc1ccc(-c2cc(-c3ccc(Cl)cc3)nc(/N=C3\C(=O)Nc4ccc(Cl)cc43)n2)cc1	8.2 µM
Cc1c(Cl)nc(Nc2ccc(C#N)cc2)nc1C(C)c1c(F)cccc1F	>13 µM
Cc1ccc(-c2cc(-c3ccc(Cl)cc3)nc(/N=C3\C(=O)Nc4ccc(Br)cc43)n2)cc1	10.4 µM
N#Cc1ccc(Nc2nc(N)cc(Cc3c(F)cccc3F)n2)cc1	44.6 µM
C[C@@]1(n2ccc(N)nc2=O)CO[C@@H](CO)O1	>100 µM
Cc1c(N)nc(Nc2ccc(C#N)cc2)nc1C(C)c1c(F)cccc1F	40.5 µM
CC(CS)C(=O)N1CCC[C@@H]1C(=O)NCC(=O)N1CCN(c2nc3ccccc3s2)CC1	1.21 µg/mL
CC(C)CN(C[C@@H](O)[C@H](Cc1ccccc1)NC(=O)O[C@H]1CO[C@H]2OCC[C@H]21)S(=O)(=O)c1ccc(-c2cnc(NC(=O)O[C@H]3CO[C@H]4OCC[C@H]43)[nH]2)cc1	>100 µM
CC(C)(C)NC(=O)[C@@H]1CN(Cc2cccnc2)CCN1C[C@H](C[C@@H](Cc1ccccc1)C(=O)N[C@H]1c2ccccc2C[C@H]1O)OC(=O)COc1ccc(C[C@H](N)C(=O)O)cc1	>100 µM
COc1ccc(OCc2nc3ccccc3n3cccc23)cc1	16 µM
COC(=O)c1cn([C@@H]2O[C@H](CO)[C@@H](O)[C@H]2O)c2ccc(F)cc2c1=O	31–125 µg/mL
Cc1c(N)nc(Nc2ccc(C#N)cc2)nc1Cc1c(F)cccc1F	45.9 µM
O=c1c2ccccc2nc2scnn12	>63.7 µg/mL
O=[N+]([O-])c1ccc(-c2csc(N/N=C/c3ccncc3)n2)cc1	75.6 µM
O=C1C=C[C@@H](n2cnc3c(Cl)ncnc32)CC1	0.5 µg/mL

Repeating the first 6 entries:

smiles,result
C[C@@]1(n2ccc(=O)[nH]c2=O)CO[C@@H](CO)O1,>100 µM
CCc1c(C(=O)c2cc(C(F)(F)F)cc(C(F)(F)F)c2)n(Cc2ccncc2)c(=O)[nH]c1=O,52.3 µg/mL
Cc1cn([C@H]2C[C@H](N=[N+]=[N-])[C@@H](CO)O2)c(=O)[nH]c1=O,0.53 µg/mL
COc1ccc(Nc2nc3ccccc3n3cccc23)cc1,>100 µM
Cc1cc(C)cc(C(=O)c2c(C(C)C)c(=O)[nH]c(=O)n2Cc2ccnc(C)c2)c1,>100 µg/mL
CC(=O)Nc1ncc(-c2ccc(S(=O)(=O)N(CC(C)C)C[C@@H](O)[C@H](Cc3ccccc3)NC(=O)O[C@H]3CO[C@H]4OCC[C@H]43)cc2)[nH]1,>100 µM

Neighbouring rows are from separate reports. CCn is the concentration with n% toxicity to the cells.